biological target: SARS-CoV-2 Mpro C145A mutant (Severe acute respiratory syndrome coronavirus 2, UniProt P0DTD1, C3408A); assay: Differential scanning fluorometry, melting temperature of inactive Mpro C145A; assay type: binding; details: 3 μM Mpro C145A, 30 μM compound

In order of rising “ΔTm Mpro C145A” value:
1. CC1(C)[C@@H]2[C@@H](C(=O)N[C@@H](C[C@@H]3CCNC3=O)C(=O)C(N)=O)N(C(=O)OCc3ccccc3)C[C@@H]21  0 °C
2. CC(C)(C)NC(=O)N[C@H](C(=O)N1C[C@@H]2CCC[C@@H]2[C@H]1C(=O)N[C@@H](C[C@@H]1CCNC1=O)C(=O)C(N)=O)C(C)(C)C  0 °C
3. CC(C)(C)C(=O)N[C@H](C(=O)N1C[C@H]2[C@@H]([C@H]1C(=O)N[C@@H](C[C@@H]1CCNC1=O)C(=O)C(N)=O)C2(C)C)C(C)(C)C  0.1 °C
